Pooled drug test results. Numbers come from NIAID ChemDB, via PubChem.

All rows: growth or infection tests; species: HIV-1; cells: PBMC; measure: EC50

ECn is the concentration giving n% inhibition of infection, replication or growth.

O=C(CNC(=O)COc1ccccc1)NCc1ccc(C(=O)N2CCCCC2)cc1 ; strain or isolate: 92UG024 ; method: RT activity ; result: 16 µM
COC(=O)[C@H](C)NP(=O)(OC[C@@H]1OC[C@H](n2cc(C)c(=O)[nH]c2=O)O1)Oc1ccc(Cl)cc1 ; strain or isolate: LAI ; mutations: RT-M184V ; method: RT activity ; result: 0.18 µM
Nc1nccc2c1ncn2[C@@H]1O[C@H](CO)[C@@H](O)[C@H]1O ; strain or isolate: 18453 unpaired ; method: p24 ; result: 0.0217 µM
CCCCCCCCCCCCCCCCCCOCCOP(=O)(O)CO[C@H](CO)Cn1cnc2c(=O)[nH]c(N)nc21 ; strain or isolate: LAI ; method: p24 / ELISA ; result: 0.003 µM
COC(=O)[C@H](C)NP(=O)(OC[C@@H]1OC[C@H](n2cc(C)c(=O)[nH]c2=O)O1)Oc1ccc(Cl)cc1Cl ; strain or isolate: LAI ; mutations: RT-M184V ; method: RT activity ; result: 0.85 µM
N=C1Sc2ccccc2C2=NCCCN12 ; strain or isolate: 92UG029 ; method: β-galactosidase ; result: 1.18 µM
CCCCCCCCCCCCCCCCOCCCOP(=O)(NCC(=O)OC)OC[C@@H]1OC[C@H](n2cc(C)c(=O)[nH]c2=O)O1 ; strain or isolate: LAI ; mutations: RT-M184V ; method: RT activity ; result: 11.9 µM
CCCc1cc(=O)oc2c3c(c4c(c12)OC(C)(C)CC4)O[C@@H](C)[C@H](C)[C@@H]3O ; strain or isolate: WEJO ; method: RT activity ; result: 0.2 µM
Clc1cc(CN2CCCNCCNCCCNCC2)cc(Cl)n1 ; strain or isolate: ADA R5 ; method: p24 ; result: 6 µM
Nc1nc(=O)n([C@H]2C=C[C@@H](CO)O2)cc1F ; strain or isolate: BRU ; method: PCR ; result: <0.22 µM
Cc1cn([C@H]2CO[C@@H](CO[P@]3(=O)OCC[C@H](c4ccccc4)O3)O2)c(=O)[nH]c1=O ; strain or isolate: LAI ; mutations: RT-M184V ; method: RT activity ; result: 3.2 µM
COC[C@@H](c1ccc(C(F)(F)F)cc1)N1CCN(C2(C)CCN(C(=O)c3c(C)ncnc3C)CC2)C[C@@H]1C ; strain or isolate: S ; mutations: G514V V535M ; result: 0.00084 µM
Cc1cn([C@H]2CO[C@@H](COP(=O)(N[C@@H](C)C(=O)OCc3ccccc3)Oc3ccccc3)O2)c(=O)[nH]c1=O ; strain or isolate: LAI ; mutations: RT-M184V ; method: RT activity ; result: 1.08 µM
N=C1Sc2ccccc2C2=NCCCN12 ; strain or isolate: 92UG029 ; method: MTS ; result: 1.18 µM
COc1cc2c(OC3OC(C)C(OC4OC(CO)C(O)C(O)C4O)C(O)C3OC(C)=O)c3c(c(-c4ccc5c(c4)OCO5)c2cc1OC)C(=O)OC3 ; strain or isolate: 89.6 ; method: p24 / ELISA ; result: 0.015 µM
CCCCCCCCCCCCCCCCCCOCCOP(=O)(O)CO[C@H](CO)Cn1cnc2c(N)ncnc21 ; strain or isolate: NRTI-MDR ; mutations: M41L T69SS L74V M18V L210W ; method: p24 / ELISA ; result: 0.016 µM
C[C@H]1[C@H](O)[C@@H](C)/C=C/C=C/C=C/C=C/C=C/C=C/C=C/[C@H](O[C@@H]2O[C@H](C)[C@@H](O)[C@H](N)[C@@H]2O)C[C@@H]2O[C@](O)(C[C@@H](O)C[C@@H](O)CC[C@H](O)[C@@H](O)C[C@@H](O)CC(=O)O[C@H]1C)C[C@H](O)[C@H]2C(=O)O ; strain or isolate: 93IN101 CLADE C R5 (NSI) ; method: p24 / RT activity ; result: 2.8 µM
CCCCCCCCCCCCCCCCCCOCCOP(=O)(O)CO[C@H](CO)Cn1ccc(N)nc1=O ; strain or isolate: NRTI-MDR ; mutations: K65R ; method: p24 / ELISA ; result: 0.027 µM
COC(=O)[C@H](C)NP(=O)(OC[C@@H]1OC[C@H](n2cc(C)c(=O)[nH]c2=O)O1)Oc1ccc(C)cc1 ; strain or isolate: LAI ; mutations: RT-M184V ; method: RT activity ; result: 0.61 µM
Nc1nc(=O)n([C@H]2C=C[C@@H](CO)O2)cc1F ; strain or isolate: NL4-3 WT ; method: p24 ; result: <1.3 µM
CCO[C@@H]1Cc2cc(C(F)(F)F)ccc2C1N1CCN(C2(C)CCN(C(=O)c3c(C)ncnc3C)CC2)C[C@@H]1C ; strain or isolate: 92/US/727 ; method: p24 ; result: 0.001 µM
Nc1nccc2c1ncn2[C@@H]1C=C(CO)[C@@H](O)[C@H]1O ; strain or isolate: 18190 unpaired ; method: p24 ; result: 0.0058 µM
Cc1ccc(-c2ccc3c(c2)C=C(C(=O)Nc2ccc(C[N+](C)(C)C4CCOCC4)cc2)CCC3)cc1 ; strain or isolate: Du301 CLADE C ; method: p24 ; result: <1 µM
Nc1nc(NC2CC2)c2ncn([C@H]3C=C[C@@H](CO)C3)c2n1 ; strain or isolate: XM-T69SSS ; mutations: RT-T69SSS L210W T215Y ; method: p24 ; result: <34 µM

Repeating the first 2 entries:

| SMILES | strain or isolate | mutations | method | result |
|---|---|---|---|---|
| O=C(CNC(=O)COc1ccccc1)NCc1ccc(C(=O)N2CCCCC2)cc1 | 92UG024 |  | RT activity | 16 µM |
| COC(=O)[C@H](C)NP(=O)(OC[C@@H]1OC[C@H](n2cc(C)c(=O)[nH]c2=O)O1)Oc1ccc(Cl)cc1 | LAI | RT-M184V | RT activity | 0.18 µM |

An empty or dashed field is not shown. Conditions beyond the fields shown may differ between rows.